From patent publication US10174127B2 (priority 2015, dated 2019)

Test system: neuraminidase of H5N1 A/Hong Kong/156/1997 (reverse genetic reassortant)
Conditions: read-out: Neuraminidase inhibition EC50, oseltamivir, geomean of two experiments

## oseltamivir carboxylate
  EC50: 380 nM
